From PMC9367177, “Engineering SARS-CoV-2 neutralizing antibodies for increased potency and reduced viral escape pathways” (2022)

Biological target: eCC6.30.2 IgG
Assay: SPR
Conditions: Fc-capture, multi-cycle; 1:1 Langmuir binding model; parent: est. 3.9e-11; read off a plot

For “SARS-CoV-2 RBD (Wuhan-1), monomeric, His-Avitag L452R”, the Kd was 2.8 nM.
